Measured values reported in PubChem BioAssay AID2318 (National Center for Advancing Translational Sciences (NCATS), 2010).
Only a part is listed here, and it is no random draw. Inconclusive results are not listed. Calls of active or inactive are those of the source. Calls follow the shape of the full dose curve.

Test: Cycloheximide Counterscreen for Small Molecule Inhibitors of Shiga Toxin (Confirmatory); also: 0% is about no effect
Conditions: protein synthesis reporter, Shiga toxin assay; at 38.3 µM (top of the series)

SMILES: O=[N+]([O-])c1cc([N+](=O)[O-])c(-c2ccn[nH]2)s1
- activity (activation): inactive: -3.03%
